Anti-infective test results gathered from many reports (values: NIAID ChemDB through PubChem).

All rows: target-level tests; species: HIV-1; target: Integrase; measure: IC50

Conditions beyond the fields shown may differ between rows. An empty or dashed field is not shown. ICn is the concentration giving n% inhibition.

{"compound": "CCOC(=O)C(C(=O)OCC)c1cn(S(=O)(=O)c2ccc(C)cc2)c2ccc(NC(=O)c3cc(F)c(F)c(F)c3)cc12", "mutations": "Y143R", "method": "strand transfer / fluorescence", "value": ">25 µM"}
{"compound": "Cn1c(=O)c2c(nc3sc4c(n32)C(=O)c2c(O)ccc(O)c2C4=O)n(C)c1=O", "method": "3′ processing", "value": "18 µM"}
{"compound": "COC(=O)/C=C/c1ccccc1", "method": "strand transfer", "value": ">100 µM"}
{"compound": "O=C1/C(=C/c2cc(O)c(O)c(O)c2)COC/C1=C\\c1cc(O)c(O)c(O)c1", "method": "strand transfer", "value": "9 µM"}
{"compound": "Nc1nc2c(ncn2C2CC(OP(=O)(O)OCC3OC(n4cnc5c(N)ncnc54)CC3O)C(COP(=O)(O)O)O2)c(=O)[nH]1", "method": "3′ processing", "value": ">100 µM"}
{"compound": "O=c1oc2ccccc2c(O)c1C(c1ccc(N(CCCl)CCCl)cc1)c1c(O)c2ccccc2oc1=O", "method": "strand transfer", "value": "12 µM"}
{"compound": "COc1cccc2c1C(=O)c1c(O)c3c(c(O)c1C2=O)C[C@@](O)(C(=O)CO)C[C@@H]3O[C@H]1C[C@H](O)[C@H](O)[C@H](C)O1", "method": "3′ processing / substrate cleavage", "value": "14.4 µM"}
{"compound": "CN(C)[C@@H]1C(=O)C(C(N)=O)=C(O)[C@@]2(O)C(=O)C3=C(O)c4c(O)cccc4[C@@](C)(O)[C@H]3[C@H](O)[C@@H]12", "conditions": "Mg2+", "method": "3′ processing", "value": ">200 µM"}
{"compound": "O=C(O)/C=C/c1ccc(O)c(O)c1", "strain or isolate": "LAI", "method": "3′ processing", "value": ">50 µg/mL"}
{"compound": "CN1C(C(=O)Nc2ccccn2)=C(O)c2ccccc2S1(=O)=O", "method": "3′ processing", "value": "190 µM"}
{"compound": "COc1cc(/C=C/C(=O)Oc2c(-c3ccc(Cl)c(Cl)c3)oc3ccccc3c2=O)ccc1O", "method": "3′ processing", "value": ">100 µM"}
{"compound": "CC1(C)OC(=O)/C(=C/C(=O)c2cn(Cc3ccc(F)cc3)c3ccc(Br)cc23)O1", "mutations": "Y143R", "method": "strand transfer / fluorescence", "value": "16.2 µM"}
{"compound": "COc1cccc2c1C(=O)c1c(O)c3c(c(O)c1C2=O)C[C@@](O)(C(=O)CO)C[C@@H]3OC1CC(N2CCOCC2)C(O)[C@H](C)O1", "strain or isolate": "RF", "method": "3′ processing", "value": "1.4 µM"}
{"compound": "CC1(C)OC(=O)/C(=C/C(=O)c2cn(Cc3cc(F)ccc3F)c3ccc(Br)cc23)O1", "mutations": "G140S", "method": "strand transfer / fluorescence", "value": "9.4 µM"}
{"compound": "O=C1/C(=C/c2ccc(O)c(O)c2)CC(C(=O)O)C/C1=C\\c1ccc(O)c(O)c1", "method": "strand transfer", "value": "1 µM"}
{"compound": "Nc1ccn(C2CC(O)C(COP(=O)(O)OC3CC(n4cnc5c(N)ncnc54)OC3COP(=O)(O)OC3CC(n4ccc(N)nc4=O)OC3COP(=O)(O)O)O2)c(=O)n1", "method": "strand transfer", "value": "27 µM"}
{"compound": "O=C1/C(=C/c2ccc(O)c([N+](=O)[O-])c2)CN(Cc2ccccc2)C/C1=C\\c1ccc(O)c([N+](=O)[O-])c1", "method": "3′ processing", "value": ">100 µM"}
{"compound": "CC(=O)Oc1c(-c2ccc(Cl)cc2)oc2ccccc2c1=O", "method": "3′ processing", "value": ">100 µM"}
{"compound": "CC[C@@]1(O)C(=O)OCc2c1cc1n(c2=O)Cc2cc3ccccc3nc2-1", "method": "3′ processing / substrate cleavage", "value": ">100 µM"}
{"compound": "O=C1/C(=C/c2cc(O)c(O)c(O)c2)CCC/C1=C\\c1cc(O)c(O)c(O)c1", "method": "strand transfer", "value": "2.3 µM"}
{"compound": "Nc1nc2c(ncn2C2CC(O)C(COP(=O)(O)OC3CC(n4cnc5c(=O)[nH]c(N)nc54)OC3COP(=O)(O)O)O2)c(=O)[nH]1", "method": "3′ processing", "value": "54 µM"}
{"compound": "COc1ccc(Cn2nnnc2C(=O)CC(=O)c2c[nH]c3ccccc23)cc1", "method": "strand transfer", "value": ">533 µM"}
{"compound": "CCCCCC(=O)c1c(O)cc2c(c1O)C(=O)c1c(O)cc(O)cc1C2=O", "conditions": "Mg2+", "method": "3′ processing", "value": ">200 µM"}
{"compound": "CCOC(=O)C(=O)C(=O)c1cccn1Cc1ccc(F)cc1", "method": "binding", "value": "3.49 µM"}
{"compound": "Cc1cn(C2CC(OP(=O)(O)OCC3OC(n4cnc5c(=O)[nH]c(N)nc54)CC3O)C(COP(=O)(O)O)O2)c(=O)[nH]c1=O", "method": "3′ processing", "value": "65 µM"}
{"compound": "CC(C)C[C@H]1OC(=O)[C@H](C(C)C)N(C)C(=O)[C@@H](C(C)C)OC(=O)[C@H](C(C)C)N(C)C(=O)[C@@H](C(C)C)OC(=O)[C@H](C(C)C)N(C)C1=O", "method": "3′ processing", "value": "37.9 µM"}
{"compound": "O=c1cc2ccccc2c(O)n1O", "method": "ELISA", "value": "4.11 µM"}
{"compound": "O[C@H](c1cc(C(F)(F)F)nc2c(C(F)(F)F)cccc12)[C@@H]1CCCCN1", "method": "3′ processing / substrate cleavage", "value": ">100 µM"}
{"compound": "O=c1c(O)cc2c(O)oc3c(=O)c(O)c(O)c4c(O)oc1c2c43", "method": "3′ processing", "value": "1.6 µM"}
{"compound": "COc1ccc(Cn2nnnc2C(=O)CC(=O)c2cc(OCc3ccccc3)cc(OCc3ccccc3)c2)cc1", "method": "3′ processing", "value": "21.7 µM"}
{"compound": "COc1cc(C(=O)Oc2c(-c3ccc(Cl)c(Cl)c3)oc3ccccc3c2=O)cc(OC)c1OC(C)=O", "method": "3′ processing", "value": ">100 µM"}
{"compound": "CCN(CC)CCCC(C)Nc1ccnc2cc(Cl)ccc12", "method": "3′ processing / substrate cleavage", "value": "13.1 µM"}
{"compound": "Cc1ccc(S(=O)(=O)n2cc(C(C(=O)O)C(=O)O)c3cc(NC(=O)c4cccc(C)c4O)ccc32)cc1", "mutations": "Y143R", "method": "strand transfer / fluorescence", "value": ">25 µM"}
{"compound": "N#Cc1cc2c(cc1C#N)/C(=N/c1cccc(N)n1)N=C2Nc1cccc(N)n1", "method": "3′ processing", "value": "148 µM"}
{"compound": "CCCCS(=O)(=O)c1ccc(Oc2cc(O)c3c(c2N)C(=O)c2ccccc2C3=O)cc1", "conditions": "Mg2+", "method": "3′ processing", "value": ">200 µM"}
{"compound": "C[C@H](OC(=O)/C=C/c1ccc(O)c(O)c1)[C@H](C)OC(=O)/C=C/c1ccc(O)c(O)c1", "method": "3′ processing", "value": "38.4 µM"}
{"compound": "CC(C)OC(=O)C(=O)CC(=O)c1cccn1Cc1ccc(F)cc1", "method": "binding", "value": "0.59 µM"}
{"compound": "Nc1ccn(C2CC(OP(=O)(O)OCC3OC(n4cnc5c(N)ncnc54)CC3OP(=O)(O)OCC3OC(n4cnc5c(=O)[nH]c(N)nc54)CC3O)C(COP(=O)(O)O)O2)c(=O)n1", "method": "strand transfer", "value": "15 µM"}
{"compound": "COc1cc([C@@H]2c3cc4c(cc3[C@@H](O[C@@H]3O[C@@H]5CO[C@@H](c6cccs6)O[C@H]5[C@H](O)[C@H]3O)[C@H]3COC(=O)[C@H]23)OCO4)cc(OC)c1O", "method": "strand transfer", "value": ">100 µM"}
{"compound": "COc1ccc(/C=C/C(=O)O[C@H]2[C@H](O[C@@H]3O[C@@H](C)[C@H](O)[C@@H](O)[C@H]3O)[C@@H](O)[C@H](OCCc3ccc(O)c(OC)c3)O[C@@H]2CO)cc1O", "method": "3′ processing", "value": ">100 µM"}
{"compound": "CCOC(=O)C(C(=O)OCC)c1cn(S(=O)(=O)c2ccc(C)cc2)c2ccc(NC(=O)c3cccc([N+](=O)[O-])c3)cc12", "method": "strand transfer / fluorescence", "value": "22.5 µM"}
{"compound": "Cc1cc(=O)[nH]c2c(OCOc3cccc4c(C)cc(=O)[nH]c34)cccc12", "conditions": "Mn2+", "method": "3′ processing", "value": ">200 µM"}
{"compound": "COc1cccc2c1C(=O)c1c(O)c3c(c(O)c1C2=O)C[C@@](O)(C(=O)CO)C[C@@H]3O", "method": "3′ processing / substrate cleavage", "value": ">100 µM"}
{"compound": "O=C(O)C(=O)/C=C(\\O)c1cn(Cc2cc(F)ccc2F)c2ccc(F)cc12", "mutations": "G140S", "method": "strand transfer / fluorescence", "value": "3.4 µM"}
{"compound": "O=C(O)c1cc2ccccc2c(N=Nc2ccc(S(=O)(=O)Nc3nccs3)cc2)c1O", "conditions": "Mg2+", "method": "3′ processing", "value": "16 µM"}
{"compound": "O/N=C1\\C(=C\\c2ccc3c(c2)OCCO3)CCCC1C(NO)c1ccc2c(c1)OCCO2", "strain or isolate": "RF", "method": "3′ processing", "value": ">200 µM"}
{"compound": "COC(=O)C(=O)CC(=O)c1cccn1Cc1ccc(F)cc1", "method": "binding", "value": "1.12 µM"}
{"compound": "Nc1ccn([C@H]2C[C@H](OP(=O)(O)OC[C@H]3OC[C@@H](n4ccc(=O)[nH]c4=O)[C@@H]3O)[C@@H](COP(=O)(O)O)O2)c(=O)n1", "method": "3′ processing", "value": "7 µM"}
{"compound": "Cc1cn(C2CC(OP(=O)(O)OCC3OC(n4cnc5c(N)ncnc54)CC3O)C(COP(=O)(O)OC3CC(n4ccc(N)nc4=O)OC3COP(=O)(O)O)O2)c(=O)[nH]c1=O", "method": "strand transfer", "value": "6 µM"}
{"compound": "O=c1oc2ccccc2c(O)c1C(c1ccc(Cl)cc1)c1c(O)c2ccccc2oc1=O", "method": "strand transfer", "value": "15 µM"}
{"compound": "O=C(O)C(=O)CC(=O)c1c[nH]c2ccccc12", "method": "3′ processing", "value": "6.5 µM"}
{"compound": "CN/N=C(/c1nc2ccc([N+](=O)[O-])cc2[nH]c1=O)C(O)c1ccc(C(O)/C(=N/NC)c2nc3ccc([N+](=O)[O-])cc3[nH]c2=O)cc1", "strain or isolate": "RF", "method": "3′ processing", "value": ">160 µM"}
{"compound": "COC(O)/C=C/c1ccc2c(c1)c(C(=O)/C=C1\\OC(C)(C)OC1=O)cn2Cc1ccc(F)cc1", "method": "strand transfer / fluorescence", "value": "11.56 µM"}
{"compound": "O=C(Nc1ccc([N+](=O)[O-])cc1)C(=S)NN1C(=O)/C(=C\\c2ccc(Cl)cc2)SC1=S", "method": "3′ processing", "value": ">100 µM"}
{"compound": "C=C1c2c(O)c(C)c(O)c(C(C)=O)c2OC12CC(=O)C(C(=O)O)=C2C", "method": "3′ processing", "value": "212 µM"}
{"compound": "Nc1ccn(C2CC(OP(=O)(O)OCC3OC(n4cnc5c(N)ncnc54)CC3O)C(COP(=O)(O)O)O2)c(=O)n1", "method": "strand transfer", "value": "13 µM"}
{"compound": "O=C(CC(=O)c1c[nH]c2ccccc12)c1nn[nH]n1", "method": "strand transfer", "value": ">784 µM"}
{"compound": "CN(C)[C@@H]1C(=O)C(C(=O)NCNC2(C(=O)[O-])CCCC2)=C(O)[C@@]2(O)C(=O)C3=C(O)c4c(O)cccc4[C@@](C)(O)[C@H]3C[C@@H]12.[Na+]", "strain or isolate": "RF", "method": "strand transfer", "value": "2.1 µM"}
{"compound": "O=C(Oc1c(-c2ccc(Cl)cc2)oc2ccccc2c1=O)c1cc(OCc2ccccc2)c(OCc2ccccc2)c(OCc2ccccc2)c1", "method": "3′ processing", "value": ">100 µM"}
{"compound": "Cc1cn(C2CC(O)C(COP(=O)(O)OC3CC(n4cc(C)c(=O)[nH]c4=O)OC3COP(=O)(O)O)O2)c(=O)[nH]c1=O", "method": "3′ processing", "value": "73 µM"}
{"compound": "O=C(/C=C/c1ccc(O)c(O)c1)NCCOC(=O)/C=C/c1ccc(O)c(O)c1", "method": "3′ processing", "value": "27.5 µM"}
{"compound": "CC(C)[C@H]1OC(=O)[C@H](Cc2ccccc2)N(C)C(=O)[C@@H](C(C)C)OC(=O)[C@H](Cc2ccccc2)N(C)C(=O)[C@@H](C(C)C)OC(=O)[C@H](Cc2ccccc2)N(C)C1=O", "method": "3′ processing", "value": "1.9 µM"}
{"compound": "O=C(O)C(=O)/C=C(\\O)c1cn(Cc2cc(F)ccc2F)c2ccc(Br)cc12", "method": "strand transfer / fluorescence", "value": "10.6 µM"}
{"compound": "O=C(/C=C/c1ccc(O)c(O)c1)O[C@@H]1C[C@](OC(=O)/C=C/c2ccc(O)c(O)c2)(C(=O)O)C[C@@H](O)[C@H]1O", "strain or isolate": "LAI", "method": "3′ processing", "value": "0.35 ± 0.04 µg/mL"}
{"compound": "COc1ccc(/C=C/C(=O)O[C@H]2[C@H](O[C@@H]3O[C@@H](C)[C@H](O)[C@@H](O)[C@H]3O)[C@@H](O)[C@H](OCCc3ccc(O)c(O)c3)O[C@@H]2CO)cc1O", "method": "3′ processing", "value": "29.4 µM"}
{"compound": "CC(=O)Oc1ccc(/C=C/C(=O)Oc2c(-c3ccc(Cl)c(Cl)c3)oc3ccccc3c2=O)cc1OC(C)=O", "method": "3′ processing", "value": ">100 µM"}
{"compound": "CN(C)[C@@H]1C(=O)C(C(=O)NCN2CCCC2)=C(O)[C@@]2(O)C(=O)C3=C(O)c4c(O)cccc4[C@@](C)(O)[C@H]3C[C@@H]12", "strain or isolate": "RF", "method": "3′ processing", "value": "28 µM"}
{"compound": "C[C@@H]1O[C@@H](O[C@@H]2[C@@H](O)[C@H](OCCc3ccc(O)c(O)c3)O[C@H](CO)[C@H]2OC(=O)/C=C/c2ccc(O)c(O)c2)[C@H](O)[C@H](O)[C@H]1O", "method": "3′ processing", "value": "7.8 µM"}
{"compound": "[N-]=[N+]=NCc1cc(CN=[N+]=[N-])cc(C(=O)CC(=O)C(=O)O)c1", "method": "3′ processing", "value": "24.5 µM"}
{"compound": "Cc1cc2c(cc1Cl)SC(NNc1cnc3ccccc3n1)=NS2(=O)=O", "method": "3′ processing", "value": "127 µM"}

For reference, 4 entries again:

compound | strain or isolate | conditions | mutations | method | value
CCOC(=O)C(C(=O)OCC)c1cn(S(=O)(=O)c2ccc(C)cc2)c2ccc(NC(=O)c3cccc([N+](=O)[O-])c3)cc12 | - | - | - | strand transfer / fluorescence | 22.5 µM
COC(=O)C(=O)CC(=O)c1cccn1Cc1ccc(F)cc1 | - | - | - | binding | 1.12 µM
COc1cccc2c1C(=O)c1c(O)c3c(c(O)c1C2=O)C[C@@](O)(C(=O)CO)C[C@@H]3O | - | - | - | 3′ processing / substrate cleavage | >100 µM
O=C1/C(=C/c2cc(O)c(O)c(O)c2)COC/C1=C\c1cc(O)c(O)c(O)c1 | - | - | - | strand transfer | 9 µM